A mixed list of measured activities; the numbers were collected in NIAID ChemDB.

Shared fields: toxicity to cultured cells; cells: HEL; endpoint: CC50

Rows are shuffled and stem from different studies.

compound	value
Cc1ccc(OCCCc2cc3cn([C@H]4C[C@H](O)[C@@H](CO)O4)c(=O)nc3o2)cc1	>200 µM
CCCCCCCCCCc1cc2cnc(OCCCCC)nc2o1	>200 µM
Cc1ccn2c(CSCc3ccccc3)c(C34CC5CC(CC(C5)C3)C4)nc2c1	10 µg/mL
Cc1ccc(C)c(CS(=O)(=O)c2ccccn2)c1	51 µg/mL
COC(=O)[C@]1(C)CCC[C@]2(C)c3ccc4[nH]cnc4c3CCC12	5.1 µg/mL
CCCCCCCCCCc1cc2cnc(OC3CCCCC3)nc2o1	>200 µM
Cc1c(Cl)c(Cl)c(CS(=O)(=O)c2cccc[n+]2[O-])c(Cl)c1Cl	2 µg/mL
CCCCCCCc1cc2cn(COCCO)c(=O)nc2[nH]1	119 µM
COc1ccc(CS(=O)c2cccc[n+]2[O-])cc1	2.1 µg/mL
C[C@H](NC(=O)N1C(=O)C[C@]1(Cc1ccccc1)C(=O)OC(C)(C)C)c1ccccc1	164 µM
COC(=O)[C@]1(C)CCC[C@]2(C)c3cc4cc[nH]c4cc3CCC12	16 µg/mL
Cc1ccc(C)c(C(C)S(=O)c2cccc[n+]2[O-])c1	1.6 µg/mL
CCCCCCCCCCc1cc2cn(COCCO)c(=O)nc2[nH]1	32 µM
Cc1ccc(CS(=O)(=O)c2cccc[n+]2[O-])cc1[N+](=O)[O-]	5.8 µg/mL
CCCCc1cc2cn(CCC(C)C)c(=O)nc2o1	>200 µM
C[C@H](NC(=O)C1(Cc2ccccc2)CCN1C(=O)OCc1ccccc1)C(N)=O	124 µM
CCCCCCCc1cc2cn(C(CC)CC)c(=O)nc2o1	>200 µM
CCCc1ccc(OCCCc2cc3cn([C@H]4C[C@H](O)[C@@H](CO)O4)c(=O)nc3o2)cc1	165 µM
Cc1ccc(C)c(C(C)S(=O)(=O)c2ccc(C)c[n+]2[O-])c1	≥100 µg/mL
CCCCCCCCc1cc2cnc(OCCC(C)C)nc2o1	117 µM
Cc1ccc[n+]([O-])c1S(=O)(=O)Cc1ccccc1Cl	21 µg/mL
Cc1ccn2c(CSCc3ccccc3)c(-c3ccccn3)nc2c1	50 µg/mL
O=c1nc2oc(CCCOc3ccccc3)cc2cn1[C@H]1C[C@H](O)[C@@H](CO)O1	>200 µM
CCCCCCc1cc2cn(C3CCCO3)c(=O)nc2o1	>200 µM
O=S(=O)(Cc1ccc(F)cc1)c1cccc[n+]1[O-]	24 µg/mL
CCCCCCCCCCc1cc2cnc(OC(CC)CC)nc2o1	127 µM
Cc1ccn2c(CSCc3ccccc3)c(-c3ccncc3)nc2c1	>50 µg/mL
CCCCCCc1cc2cn(CCC(C)C)c(=O)nc2o1	>200 µM
Cc1ccc[n+]([O-])c1S(=O)(=O)C(C)c1cccc([N+](=O)[O-])c1C	96 µg/mL
CCCCCCCCCCc1cc2cn(C3CCCCC3)c(=O)nc2o1	>200 µM
CCCCCCc1cc2cn(COCCO)c(=O)nc2[nH]1	>200 µM
Cc1ccccc1C(C(N)=O)S(=O)c1cccc[n+]1[O-]	>20 µg/mL
COC(=O)[C@]1(C)CCC[C@]2(C)c3ccc4[nH]c(C(F)(F)F)nc4c3CCC12	10.8 µg/mL
CC(C)(C)OC(=O)C1(Cc2ccccc2)CCN1C(=O)OCc1ccccc1	34 µM
COC(=O)Nc1nc2c3c(ccc2[nH]1)[C@@]1(C)CCC[C@@](C)(C(=O)OC)C1CC3	4.5 µg/mL
Cc1ccn2c(CSCc3ccccc3)c(-c3cccnc3)nc2c1	>50 µg/mL
Cc1ccc(CS(=O)(=O)c2cccc[n+]2[O-])c(C)c1	16 µg/mL
CCCCCCCCCCc1cc2cnc(OCc3ccc(OC)cc3)nc2o1	>200 µM
CCC(c1cc(C)ccc1C)S(=O)(=O)c1c(C)ccc[n+]1[O-]	20 µg/mL
CCCCCCCCCCc1cc2cn(C3CCCO3)c(=O)nc2o1	>200 µM
N#Cc1ccccc1CS(=O)(=O)c1cccc[n+]1[O-]	15 µg/mL
CCCCCCCCc1cc2cn(COCCO)c(=O)nc2[nH]1	65 µM
Cc1ccc(C)c(CS(=O)(=O)c2cccc[n+]2[O-])c1	39 µg/mL
CNC(=O)[C@@H](C)NC(=O)C1(Cc2ccccc2)CCN1C(=O)OCc1ccccc1	>200 µM
[O-][n+]1ccccc1SCc1ccccc1	>50 µg/mL
CCCCc1cc2cnc(OC3CCCC3)nc2o1	108 µM

Repeating the final 5 entries:

| compound | value |
|---|---|
| CCCCCCCCc1cc2cn(COCCO)c(=O)nc2[nH]1 | 65 µM |
| Cc1ccc(C)c(CS(=O)(=O)c2cccc[n+]2[O-])c1 | 39 µg/mL |
| CNC(=O)[C@@H](C)NC(=O)C1(Cc2ccccc2)CCN1C(=O)OCc1ccccc1 | >200 µM |
| [O-][n+]1ccccc1SCc1ccccc1 | >50 µg/mL |
| CCCCc1cc2cnc(OC3CCCC3)nc2o1 | 108 µM |

CCn is the concentration with n% toxicity to the cells.